From PubChem BioAssay AID559 (PCMD, 2006)
The entries are a selection whose mix differs from that of the whole data set. The source made the active and inactive calls. Rule as the data show it: active = inhibition above about 20%; inactive = the rest.

Amino acid sequences for entries named in this document (tags omitted).
UniProt P0A8V2, whole entry, looked up: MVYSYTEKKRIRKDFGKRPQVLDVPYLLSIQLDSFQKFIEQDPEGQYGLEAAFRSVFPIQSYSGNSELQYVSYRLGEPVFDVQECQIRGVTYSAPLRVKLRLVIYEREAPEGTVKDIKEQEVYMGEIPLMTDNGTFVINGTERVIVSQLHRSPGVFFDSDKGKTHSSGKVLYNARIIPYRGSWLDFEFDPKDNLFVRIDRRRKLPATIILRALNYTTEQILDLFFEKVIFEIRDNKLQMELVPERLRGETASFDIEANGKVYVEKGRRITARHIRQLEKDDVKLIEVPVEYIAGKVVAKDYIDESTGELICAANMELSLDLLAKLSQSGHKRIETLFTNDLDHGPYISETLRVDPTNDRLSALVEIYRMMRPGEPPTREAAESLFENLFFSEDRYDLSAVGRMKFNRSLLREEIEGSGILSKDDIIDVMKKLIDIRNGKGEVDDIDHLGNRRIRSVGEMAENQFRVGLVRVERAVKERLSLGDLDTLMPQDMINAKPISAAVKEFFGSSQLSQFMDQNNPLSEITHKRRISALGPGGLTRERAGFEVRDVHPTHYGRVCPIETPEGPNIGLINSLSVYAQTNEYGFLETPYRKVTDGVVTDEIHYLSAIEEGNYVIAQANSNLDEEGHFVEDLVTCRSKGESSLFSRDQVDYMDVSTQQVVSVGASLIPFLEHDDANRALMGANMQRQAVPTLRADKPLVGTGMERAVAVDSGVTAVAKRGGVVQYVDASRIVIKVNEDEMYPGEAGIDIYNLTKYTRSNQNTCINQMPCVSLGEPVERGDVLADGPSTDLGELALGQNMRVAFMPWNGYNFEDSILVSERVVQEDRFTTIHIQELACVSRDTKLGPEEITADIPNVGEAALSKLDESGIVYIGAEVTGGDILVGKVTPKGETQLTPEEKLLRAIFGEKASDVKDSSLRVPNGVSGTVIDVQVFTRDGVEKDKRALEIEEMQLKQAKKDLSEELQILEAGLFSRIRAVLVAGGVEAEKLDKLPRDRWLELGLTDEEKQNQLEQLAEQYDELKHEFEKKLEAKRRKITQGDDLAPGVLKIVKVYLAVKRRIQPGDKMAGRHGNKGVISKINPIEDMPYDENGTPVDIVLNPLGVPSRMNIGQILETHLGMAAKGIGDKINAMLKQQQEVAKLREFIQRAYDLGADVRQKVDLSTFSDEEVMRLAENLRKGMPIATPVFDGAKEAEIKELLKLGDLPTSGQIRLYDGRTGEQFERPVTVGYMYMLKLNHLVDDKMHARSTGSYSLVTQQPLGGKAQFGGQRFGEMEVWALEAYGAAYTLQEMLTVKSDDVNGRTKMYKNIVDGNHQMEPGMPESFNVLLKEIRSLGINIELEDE

molecular target: DNA-directed RNA polymerase subunit beta (Escherichia coli (strain K12)) (UniProt P0A8V2); experiment: bacterial RNA polymerase transcription inhibition – biochemical (AID 559);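 also: 0% = enzyme without compound and 100% = no enzyme blank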; conditions: E. coli RNA polymerase, fluorescence transcription assay; active compounds read high;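 tested at 10 µM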

| Structure (SMILES) | inhibition |
| --- | --- |
| O=P1(Nc2ccccn2)COc2ccccc2OC1 | inactive: 12.1% |
| Clc1n[nH]nc1-c1nn[nH][15n]1 | inactive: 2% |
| Cc1nn(-c2ccccc2)c2c1P(=O)(N1CCOCC1)N(C)C(c1ccccc1)=N2 (centres undefined) | inactive: 1.95% |
| O=P1(Nc2ncccn2)COc2ccccc2OC1 | inactive: 11.7% |
| O=P1(Nc2ccc(Br)cn2)COc2ccccc2OC1 | inactive: -5.19% |
| Cc1ccc(OCC(=O)OC2CN3CCC2CC3)cc1 (centres undefined) | inactive: 9.11% |
| CCOP1(=S)c2c(C)nn(CCC#N)c2N=C(c2ccccc2F)N1C (centres undefined) | inactive: 4.48% |
| O=P(Nc1nccs1)(c1ccccc1)c1nc2ccccc2s1 (centres undefined) | inactive: 7.56% |
| CCOP1(=S)c2c(C)nn(CCC#N)c2N=C(c2ccc(F)cc2)N1C (centres undefined) | inactive: 5.67% |
| Cc1cccc(OCC(=O)OC2CN3CCC2CC3)c1 (centres undefined) | inactive: 11.7% |
| O=C(OC1CN2CCC1CC2)C12CC3CC(CC(C3)C1)C2 (centres undefined) | inactive: -3.97% |
| COP1(=S)c2c(C)nn(CCC#N)c2N=C(c2ccc(F)cc2)N1C (centres undefined) | inactive: 1.11% |
| O=C(COc1ccccc1)OC1CN2CCC1CC2 (centres undefined) | inactive: 6.51% |
| CCc1nc2c(n1)c1c(non1O)c1c2no[n+]1[O-] | inactive: 4.52% |
| O=P1(Nc2nc3ccc(Cl)cc3s2)COc2ccccc2O1 (centres undefined) | inactive: 4.82% |
| COC(=O)c1cc2c(s1)N=C(c1ccccc1)N(C)P2(=O)N1CCOCC1 (centres undefined) | inactive: 3.25% |
| O=C(OC1CN2CCC1CC2)c1cccc(Cl)c1 (centres undefined) | inactive: -3.75% |
| O=P(Nc1nccs1)(c1ccccc1)c1ccccc1 | inactive: 8.97% |
| c1nnnn1CCn1cnnn1 | inactive: 2.34% |
